Measured values from several laboratories, pooled; numbers as filed in NIAID ChemDB.

Shared fields: enzyme or target tests; organism: Hepatitis C virus

An empty or dashed field is not shown. Conditions beyond the fields shown may differ between rows. ICn: concentration for n% inhibition. a–b is a range or a potency band. Percent inhibition refers to the dose given; in toxicity tests it is the harm to the cells.

SMILES | dose | read-out | target | value
CC(C)S(=O)(=O)Nc1cnn2c(C3CCCCC3)c(-c3ccc(OCc4ccccc4)cc3)cnc12 |  | IC50 | RNA-dependent RNA polymerase | >10 µM
CC(C)N(C(=O)c1ccc(Cl)cc1[N+](=O)[O-])c1cc(-c2ccccc2)sc1C(=O)O |  | IC50 | NS3 ATPase | <5 µM
Cc1ccc(-c2nc(C(=O)O)c(O)c(=O)[nH]2)cc1 |  | IC50 | HCV polymerase | <100 µM
COc1ccc(-c2cc(-c3ccc(Cl)cc3)nc3cc(C(=O)O)nn23)cc1 |  | IC50 | RNA-dependent RNA polymerase | >10 µM
CC(C)N(C(=O)c1cc(F)c(Cl)cc1F)c1cc(-c2ccccc2)sc1C(=O)O |  | IC50 | NS3 ATPase | 5–20 µM
O=C(O)c1nc(-c2sccc2CCO)[nH]c(=O)c1O |  | IC50 | HCV polymerase | <25 µM
c1ccc(Oc2cccc(-c3cnc4c(-c5nn[nH]n5)cnn4c3C3CCCCC3)c2)cc1 |  | IC50 | RNA-dependent RNA polymerase | 1–10 µM
COc1ccc(-c2ccc(C#N)cc2)c(-c2ccc3cc(-c4nc5cc(C(=O)O)ccc5n4C4CCCCC4)ccc3n2)c1 | 33 µM | inhibition | NS5B polymerase | 102%
Cc1ccc(C(=O)N(Cc2cccc(C(C)(C)C)c2)c2cc(-c3ccccc3)sc2C(=O)O)cc1 |  | IC50 | NS3 ATPase | <5 µM
O=C(O)c1cc2nc(-c3ccc(F)cc3)cc(-c3ccc(-c4ccccc4)cc3)n2n1 |  | IC50 | RNA-dependent RNA polymerase | 1–10 µM
O=C(Cc1ccccc1Br)Nc1ccsc1-c1nc(C(=O)O)c(O)c(=O)[nH]1 |  | IC50 | HCV polymerase | <25 µM
CC(=O)N(Cc1ccccc1C)c1cc(-c2ccccc2)sc1C(=O)O |  | IC50 | NS3 ATPase | >20 µM
COc1ccc(-c2ccc(Cl)cc2)c(-c2ccc3cc(-c4nc5cc(C(=O)O)ccc5n4CCN(C)C)ccc3n2)c1 | 100 µM | inhibition | NS5B polymerase | 89.85%
O=C(Nc1ccc(OC(F)(F)F)cc1)Nc1cccc(-c2nc(C(=O)O)c(O)c(=O)[nH]2)c1 |  | IC50 | HCV polymerase | <100 µM
COc1cccc(-c2cc(-c3cccc(Cl)c3)nc3cc(C(=O)O)nn23)c1 |  | IC50 | RNA-dependent RNA polymerase | >10 µM
O=C(O)c1ccc2c(c1)nc(-c1ccc3nc(-c4ccncc4)ccc3c1)n2C1CCCCC1 | 100 µM | inhibition | NS5B polymerase | 98.7%
O=C(Nc1ccccc1)Nc1ccsc1-c1nc(C(=O)O)c(O)c(=O)[nH]1 |  | IC50 | HCV polymerase | <25 µM
O=C(O)c1ccc2c(c1)nc(-c1ccc3nc(-c4ccc(Cl)c(Cl)c4)ccc3c1)n2C1CCCCC1 | 100 µM | inhibition | NS5B polymerase | 98.89%
CCC(=O)N(Cc1ccc(C)cc1)c1cc(-c2ccccc2)sc1C(=O)O |  | IC50 | NS3 ATPase | 5–20 µM
O=C(NCc1ccccc1Cl)Nc1ccc(NC(=O)c2cccs2)cc1-c1nc(C(=O)O)c(O)c(=O)[nH]1 |  | IC50 | HCV polymerase | <100 µM
Cc1ccccc1S(=O)(=O)Nc1cc(C#Cc2ccccc2)sc1C(=O)O |  | IC50 | NS3 ATPase | <5 µM
O=C(O)c1nc(-c2sccc2NC(=O)C2CCCNC2)[nH]c(=O)c1O |  | IC50 | HCV polymerase | <25 µM
COc1ccc(-c2ccc(Cl)cc2)c(-c2ccc3cc(-c4nc5cccc(C(=O)O)c5n4C4CCCCC4)ccc3n2)c1 | 100 µM | inhibition | NS5B polymerase | 102%
COC(=O)c1sc(-c2ccccc2)cc1N(C(=O)c1ccc(Cl)cc1Cl)C(C)C |  | IC50 | NS3 ATPase | 5–20 µM
O=C(O)COc1cccc(-c2ccc3cc(-c4nc5cc(C(=O)O)ccc5n4C4CCCCC4)ccc3n2)c1 | 33 µM | inhibition | NS5B polymerase | 97.29%
Cc1ccc(C(=O)N(c2cc(-c3cccc(C(F)(F)F)c3)sc2C(=O)O)C(C)C)c(O)c1 |  | IC50 | NS3 ATPase | 5–20 µM

For reference, 2 entries again:

SMILES | dose | read-out | target | value
COc1ccc(-c2cc(-c3ccc(Cl)cc3)nc3cc(C(=O)O)nn23)cc1 |  | IC50 | RNA-dependent RNA polymerase | >10 µM
CCC(=O)N(Cc1ccc(C)cc1)c1cc(-c2ccccc2)sc1C(=O)O |  | IC50 | NS3 ATPase | 5–20 µM